Source: PMC6193675

Biological target: yeast-displayed unmodified gp120 from HIV strain YU2, fused at its C-terminal to Aga2p (mutated furin cleavage site) (HIV-1 strain YU2)
Experiment: flow cytometry on cells; competition: increasing soluble CD4 against VRC01 (1, 3 or 30 nM) on yeast-displayed gp120; secondary antibody at 4°C, cells on ice; Ki from the three antibody concentrations

purified soluble form of CD4 (from UniProt P01730 26-396) (receptor)
Ki: 0.58 nM | logIC50 at 1 nM VRC01: -0.45 | logIC50 at 3 nM VRC01: 0.13 | logIC50 at 30 nM VRC01: 0.72
